Results deposited as PubChem BioAssay AID624099 (ICCB-Longwood, 2012)
Here is a random part of about 21,000 deposited reagents. Over the whole deposit, 497 (2.4%) were called active. 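Higher z means weaker E2 silencing; only reporter increases were scored, and knock-downs that hurt cell survival may mask genuine repressor factors.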 Unmarked entries are inactive. The numbers tell different reagents against one gene apart.

Assay: 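Human genes that papillomavirus E2 requires to repress the HPV18 LCR promoter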 (primary screen)
Cells: human C33A cervical carcinoma cells (HPV-negative) stably expressing BPV1 E2 and an HPV18 LCR luciferase reporter
Knock-down reagent: siRNA pool against human genes, 40 nM
Timing: 72 h
Measured: 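HPV18 LCR reporter light per well, converted to plate-wise z-scores that exclude control wells, and averaged over triplicate plates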
Reading the numbers: mean z-score and z-score: higher = stronger reporter signal, weaker E2 silencing
Hit rule: 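Mean z ≥ 2 together with z ≥ 2 in two or more of the three replicates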

no.	gene	reagent no.	mean z-score	z-score, replicate A	z-score, replicate B	z-score, replicate C
1	TTC19	1	0.91	1.1	0.84	0.8
2	EXOC3L4	1	0.95	0.85	0.8	1.19
3	CFAP20	1	0.17	0.45	0.14	-0.1
4	RPL13AP17	1	-0.12	0.21	-0.16	-0.42
5	FAM41C	1	0.55	0.4	0.55	0.7
6	DACH1	1	3.65 (active)	3.62	3.91	3.42
7	ATF6	1	0.45	0.39	0.62	0.36
8	KLHL27	1	-1.2	-1.18	-1.2	-1.23
9	SMAD6	1	1.81	1.56	2.06	1.81
10	LINC00471	1	0.72	0.7	0.5	0.96
11	SELL	1	1.04	0.99	1.06	1.07
12	ASCC3	1	0.36	-0.02	0.22	0.89
13	ASCC3	2	0.57	0.14	0.5	1.06
14	ZBTB32	1	2.06 (active)	2.54	1.45	2.19
15	LOC389899 (retired record)	1	-0.39	-0.36	-0.18	-0.64
16	COG2	1	1.66	1.49	1.81	1.66
17	NCKIPSD	1	0.46	-0.51	0.82	1.08
18	P2RX6	1	0.85	0.94	0.58	1.04
19	KCNK6	1	0.06	0.24	-0.11	0.04
20	TSC2	1	-0.01	0.39	-0.38	-0.04
21	CDADC1	1	-0.34	-0.78	-0.58	0.35
22	PLCB4	1	-1.15	-1.34	-1.05	-1.06
23	LOC388853 (retired record)	1	-0.44	-0.61	-0.18	-0.52
24	FCGR3A	1	-0.51	-0.49	-0.56	-0.5
25	LOC401441 (retired record)	1	0.64	0.51	0.41	1.01
26	VCPIP1	1	-0.71	-0.92	-0.72	-0.49
27	EPB41L3	1	0.47	0.94	0.07	0.41
28	AQR	1	1.39	1.27	1.26	1.65
29	H3C4	1	0.16	0.15	0.29	0.03
30	KRTCAP3	1	0.02	0.1	0.15	-0.2
31	TASP1	1	0.74	0.69	1.04	0.5
32	SEC14L1	1	-0.09	-0.27	-0.09	0.08
33	CNBP	1	0.43	0.02	0.77	0.51
34	EEPD1	1	-0.35	-0.34	-0.37	-0.33
35	MAP3K7	1	0.37	0.14	0.33	0.64
36	LINC00924	1	-0.74	-1.05	-1.25	0.08
37	LOC388622 (retired record)	1	-0.87	-0.92	-1	-0.69
38	OC90	1	0.3	0.29	0.25	0.35
39	WNT4	1	1.37	1.35	1.14	1.61
40	PSD	1	0.52	0.28	0.51	0.77
41	NFXL1	1	-0.67	-0.65	-0.8	-0.55
42	LOC284912	1	-1.44	-1.61	-1.36	-1.36
43	C5AR2	1	0.6	0.49	0.41	0.91
44	ANAPC10	1	0.94	0.61	1.15	1.07
45	UGT1A6	1	-0.09	-0.11	-0.27	0.1
46	FAM163A	1	0.83	0.59	1.13	0.76
47	CHD8	1	2.05	1.98	2.47	1.71
48	RPS17	1	-1.55	-1.57	-1.5	-1.57
49	ERGIC2	1	-0.76	-0.41	-1.28	-0.6
50	HEATR3	1	0.12	0.03	0.07	0.24
51	AURKC	1	1.33	1.33	1.71	0.93
52	RPL37P6	1	-2.9	-2.56	-3.25	-2.9
53	FBXL12	1	0.32	0.35	0.33	0.28
54	CARM1	1	-0.42	-0.36	-0.47	-0.43
55	SNTG2	1	-0.26	0.06	-0.29	-0.55
56	MUC6	1	1	1.38	0.8	0.82
57	CHST15	1	2.95 (active)	3.85	2.71	2.29
58	PRCC	1	0.67	0.67	0.85	0.49
59	SOBP	1	-0.12	0.2	0.15	-0.72
60	NR1I2	1	0.62	0.37	0.87	0.63
61	VCX2	1	-0.81	-0.48	-1.14	-0.82
62	ADH4	1	-1.03	-1.19	-1.04	-0.88
63	MYOG	1	-0.33	-0.64	-0.16	-0.18
64	CBX2	1	-1.03	-1.16	-1.02	-0.9
65	POM121L9P	1	-0.2	0.11	-0.08	-0.62
66	ZNF833P	1	-0.06	-0.02	-0.03	-0.12
67	LOC387702 (retired record)	1	0.32	0.77	0.16	0.04
68	PCP2	1	-0.49	-0.2	-0.55	-0.72
69	DCP1A	1	-0.71	-0.7	-0.62	-0.83
70	ABI2	1	0.08	-0.2	0.07	0.38
71	CD160	1	0.36	0.42	0.08	0.57
72	TAF11	1	0.64	0.53	1	0.38
73	SLC6A9	1	-0.25	-0.09	-0.15	-0.49

Reprinted from the listing for reference:
no.	gene	reagent no.	mean z-score	z-score, replicate A	z-score, replicate B	z-score, replicate C
33	CNBP	1	0.43	0.02	0.77	0.51
34	EEPD1	1	-0.35	-0.34	-0.37	-0.33
35	MAP3K7	1	0.37	0.14	0.33	0.64
36	LINC00924	1	-0.74	-1.05	-1.25	0.08
37	LOC388622 (retired record)	1	-0.87	-0.92	-1	-0.69
38	OC90	1	0.3	0.29	0.25	0.35
39	WNT4	1	1.37	1.35	1.14	1.61
40	PSD	1	0.52	0.28	0.51	0.77
41	NFXL1	1	-0.67	-0.65	-0.8	-0.55
42	LOC284912	1	-1.44	-1.61	-1.36	-1.36
